Reference: paper PMC9268414, “Screening an In-House Isoquinoline Alkaloids Library for New Blockers of Voltage-Gated Na^+ Channels Using Voltage Sensor Fluorescent Probes: Hits and Biases” (Molecules, 2022)

Tested on: NaV channels endogenously expressed in GH3b6 cells
Experiment: FRET voltage sensor probe (VSP) assay of BTX-induced depolarization in GH3b6 cells
Type: cell-based, rat

## Cc1c[nH]c(C)c1C(=O)OC(C)C1=CCC23OCCN(C)CC12CC(O)C12OC4(O)CCC1(C)C(CC=C32)C4 (stereo not drawn) [BTX, batrachotoxin, reference compound]
GH3b6 cells, BTX concentration-response curve
  Hill slope of BTX-induced VSP signal: 1.21 ± 0.26

## NC1=N[C@H](O)[C@H]2[C@H]3O[C@]4(O)O[C@@H]([C@@H](O)[C@@]2(N1)[C@@H]4O)[C@]3(O)CO [TTX, tetrodotoxin, reference compound]
  Hill slope of TTX inhibition of BTX-induced VSP signal: 1.53 ± 41

## thalmiculine [IA49]
GH3b6 cells, BTX 1 µM, n = 6
  Hill Slope, inhibition of BTX-evoked VSP signal: 1.50 ± 0.93
